Measured values taken from ChEMBL document CHEMBL1121479, “Simple beta-lactam compounds derived from 6-aminopenicillanic acid” (1980).

Legend:
Proteus vulgaris = experiment: Evaluated for the minimum inhibitory concentration (MIC) which inhibits the growth of Proteus vulgaris ATCC 6380 (gram-negative )
Shigella sonnei = experiment: Evaluated for the minimum inhibitory concentration (MIC) which inhibits the growth of Shigella sonnei ATCC 11060 (gram-negative )
Proteus mirabilis = experiment: Evaluated for the minimum inhibitory concentration (MIC) which inhibits the growth of Proteus mirabilis MIT B-52 (gram-negative )
Escherichia coli = experiment: Evaluated for the minimum inhibitory concentration (MIC) which inhibits the growth of Escherichia coli ATCC 25922 (gram-negative )
Serratia marcescens = experiment: Evaluated for the minimum inhibitory concentration (MIC) which inhibits the growth of Serratia marcescens MIT B-43 (gram-negative )
Enterobacter cloacae = experiment: Evaluated for the minimum inhibitory concentration (MIC) which inhibits the growth of Enterobacter cloacae ATCC 13047 (gram-negative )
Staphylococcus aureus = experiment: Evaluated for the minimum inhibitory concentration (MIC) which inhibits the growth of Staphylococcus aureus ATCC 25923 (gram-positive)
Klebsiella pneumoniae = experiment: Evaluated for the minimum inhibitory concentration (MIC) which inhibits the growth of Klebsiella pneumoniae ATCC 27736 (gram-negative )
Streptococcus pyogenes = experiment: Evaluated for the minimum inhibitory concentration (MIC) which inhibits the growth of Streptococcus pyogenes ATCC 10389 (gram-positive)
Pseudomonas aeruginosa = experiment: Evaluated for the minimum inhibitory concentration (MIC) which inhibits the growth of Pseudomonas aeruginosa ATCC 9721 (gram-negative ).
Salmonella typhimurium = experiment: Evaluated for the minimum inhibitory concentration (MIC) which inhibits the growth of Salmonella Typhimurium ATCC 13311 (gram-negative ); conditions: salmonella typhimurium a
[1] = system: Staphylococcus epidermidis; experiment: Evaluated for the minimum inhibitory concentration (MIC) which inhibits the growth of Staphylococcus epidermidis ATCC 14990 (gram-positive)

Measured: MIC

CC1(C)SC2[C@@H](Br)C(=O)N2C1O (some centres not stated)
> 100 µg/mL: all assays above
